Source: patent publication US20240122867A1, “CORONAL PROTEIN-COATED NANOPARTICLES AND USES THEREOF” (UNIVERSITY OF CENTRAL FLORIDA RESEARCH FOUNDATION, INC., priority 2021, published 2024)

System: coronal proteins on NPs
Design: species or system mouse
Details: for V5 Sera_Nanoparticles Quantitative Value (Normalized Total Spectra): HBPE-NPs incubated with IAV day 5 (V5) mouse sera 1 h, 20:1 NP:sera, centrifuged and washed; for V5 Sera Alone (Control) Quantitative Value (Normalized Total Spectra): IAV day 5 (V5) mouse sera alone, no NPs, mass spectrometry protein identification

Molecule	V5 Sera_Nanoparticles Quantitative Value (Normalized Total Spectra)	V5 Sera Alone (Control) Quantitative Value (Normalized Total Spectra)
Proprotein convertase subtilisin/kexin type 9 (protein, UniProt Q80W65 156-694, looked up) Proprotein convertase …: SIPWNLERIIPAWHQTEEDRSPDGSSQVEVYLLDTSIQGAHREIEGRVTITDFNSVPEEDGTRFHRQASKCDSHGTHLAGVVSGRDAGVAKGTSLHSLRVLNCQGKGTVSGTLIGLEFIRKSQLIQPSGPLVVLLPLAGGYSRILNAACRHLARTGVVLVAAAGNFRDDACLYSPASAPEVITVGATNAQDQPVTLGTLGTNFGRCVDLFAPGKDIIGASSDCSTCFMSQSGTSQAAAHVAGIVARMLSREPTLTLAELRQRLIHFSTKDVINMAWFPEDQQVLTPNLVATLPPSTHETGGQLLCRTVWSAHSGPTRTATATARCAPEEELLSCSSFSRSGRRRGDWIEAIGGQQVCKALNAFGGEGVYAVARCCLVPRANCSIHNTPAARAGLETHVHCHQKDHVLTGCSFHWEVEDLSVRRQPALRSRRQPGQCVGHQAASVYASCCHAPGLECKIKEHGISGPSEQVTVACEAGWTLTGCNVLPGASLTLGAYSVDNLCVARVHDTARADRTSGEATVAAAICCRSRPSAKASWVQ	0	0.9252
Basigin (protein, UniProt P18572 22-389, looked up) Basigin: AAGFLKAPLSQERWAGGSVVLHCEAVGSPIPEIQWWFEGNAPNDSCSQLWDGARLDRVHIHAAYRQHAASSLSVDGLTAEDTGTYECRASSDPDRNHLTRPPRVKWVRAQASVVVLEPGTIQTSVQEVNSKTQLTCSLNSSGVDIVGHRWMRGGKVLQEDTLPDLHTKYIVDADDRSGEYSCIFLPEPVGRSEINVEGPPRIKVGKKSEHSSEGELAKLVCKSDASYPPITDWFWFKTSDTGEEEAITNSTEANGKYVVVSTPEKSQLTISNLDVNVDPGTYVCNATNAQGTTRETISLRVRSRMAALWPFLGIVAEVLVLVTIIFIYEKRRKPDQTLDEDDPGAAPLKGSGTHMNDKDKNVRQRNAT	0	0.9252
Angiopoietin-1 (protein, UniProt O08538 20-498, looked up) Angiopoietin-1: SNQRRNPENGGRRYNRIQHGQCAYTFILPEHDGNCRESATEQYNTNALQRDAPHVEPDFSSQKLQHLEHVMENYTQWLQKLENYIVENMKSEMAQIQQNAVQNHTATMLEIGTSLLSQTAEQTRKLTDVETQVLNQTSRLEIQLLENSLSTYKLEKQLLQQTNEILKIHEKNSLLEHKILEMEGKHKEELDTLKEEKENLQGLVSRQTFIIQELEKQLSRATNNNSILQKQQLELMDTVHNLISLCTKEGVLLKGGKREEEKPFRDCADVYQAGFNKSGIYTIYFNNMPEPKKVFCNMDVNGGGWTVIQHREDGSLDFQRGWKEYKMGFGNPSGEYWLGNEFIFAITSQRQYMLRIELMDWEGNRAYSQYDRFHIGNEKQNYRLYLKGHTGTAGKQSSLILHGADFSTKDADNDNCMCKCALMLTGGWWFDACGPSNLNGMFYTAGQNHGKLNGIKWHYFKGPSYSLRSTTMMIRPLDF	0	0.9252
EH domain-containing protein 4 (protein, UniProt Q9EQP2 1-541, looked up) EH domain-containing protein 4: MFSWMGRQAGGRERSGGMDAVQTVTGGLRSLYQRKVLPLEEAYRFHEFHSPALEDADFENKPMILLVGQYSTGKTTFIRYLLEQDFPGMRIGPEPTTDSFIAVMYGETEGSTPGNALVVDPKKPFRKLSRFGNAFLNRFMCSQLPNQVLKSISIIDSPGILSGEKQRISRGYDFCQVLQWFAERVDRIILLFDAHKLDISDEFSEAIKAFRGQDDKIRVVLNKADQVDTQQLMRVYGALMWSLGKVINTPEVLRVYIGSFWAQPLQNTDNRRLFEAEAQDLFRDIQSLPQKAAVRKLNDLIKRARLAKVHAYIISYLKKEMPNMFGKENKKRELIYRLPEIYVQLQREYQISAGDFPEVKAMQEQLENYDFTKFHSLKPKLIEAVDNMLTNKISSLMGLISQEEMNMPTQMVQGGAFDGTTEGPFNQGYGEGAKEGADEEEWVVAKDKPVYDELFYTLSPINGKISGVNAKKEMVTSKLPNSVLGKIWKLADCDCDGMLDEEEFALAKHLIKIKLDGYELPNSLPPHLVPPSHRKSLPKAD	0	0.9252
Isoleucine--tRNA ligase, mitochondrial (protein, UniProt Q8BIJ6 49-1012, looked up) Isoleucine--tRNA ligase, …: DSPQSSSKGGRYRDTVLLPQTSFPMKLLGRQQSDMELEIQQKCGFSELYSWQRERKVKTEFCLHDGPPYANGDPHVGHALNKILKDIANRFHMMRGSKVHFVPGWDCHGLPIETKVLSELGVDAQSLSAMEIREKARSFAQAAIEKQKSAFVRWGVMADWNNCYYTFDPKYEAKQLRVFYQMYEKGLVYRSYKPVYWSPSSRTALAEAELEYNPEHVSRSIYVRFPLLRPPPKLESLTDASSPVSVLVWTTQPWTIPANQAICYMPEAKYAVVKCSASGHLYILAEDKIAPVASALETTFDVVAAFSGVDLEGGTCSHPLTPDKVSPLLPATHVTMAKGTGLVHTAPAHGMEDYSVASQHSLPMDCLVDEGGMFTDAAGPELQNKAVLKEGTDVVIKMLQATKNVLKEENIVHSYPCDWRTKTPVLIRASKQWFVNITDIKAAAKESLKTVKFIPGAALNSMTDMLDRRPYWCISRQRVWGVPIPVFHHKTKDEYLINSQTTEHIIKLVEQHGSDVWWTLPAEQLLPAEVLAQAGGPGALEYAPGQDILDIWFDSGTSWSCVLQDTQQRADLYLEGKDQLGGWFQSSLLTSVATRSKAPFRTVMVHGFTLGEKGEKMSKSLGNVINPDTIISGGKDHSKEPPYGADILRWWIAESNVFTEVTIGPSVLSAARDDISKLRNTLRFLLGNLTGFNPETDSVPVKNMYVIDQYMLHLIQDFATKITDSYKQYDFGKVVRLLKAFYTRELSSFYFSIVKDRLYCENEKDPKRRSCQTALAEILDVLVRAFAPILPHLAEEVFQHIPYVTEPKSVFRTGWINTSSIWKKPGLEEAVESACAMRDSFLGSIPGKNAAEYEVIIVIEPGLLFEIMEMLQAEETSSTSQLNELMMASQTTLLAQEPRERTAGDIELTGTFVINLEGGDIREESSYKVIVVPTAREKCPRCWKHTSETADALCPRCAEVIGAK	0	0.9252
